Data reported in publication PMC8257661.

Assays:
[1] = target: JUNV L protein (RNA-dependent RNA polymerase) (Junin virus (JUNV)) (UniProt Q6XQI4); assay: EMSA; details: L:vRNA 1:1.2; 50 mM Tris-HCl pH 8.0, 500 mM NaCl, 10% ([…]; recombinant protein; residues 1-2210
[2] = tested on: JUNV L protein (RNA-dependent RNA polymerase) + JUNV Z protein (matrix zinc-binding protein); assay: EMSA; details: L-Z complex; 50 mM Tris-HCl pH 8.0, 500 mM NaCl, 10% ([…]; recombinant protein

## GAUUCCUCCAUGCUCAAGUGCCGCCUAGGAUCCUCGGUGC [L-segment 3'-vRNA 40 nt]
[1]
  binding result: binds
[2]
  binding result: binds

Construct, isoform or probe ends are uncertain for at least one entry. At least one verdict rests on a figure or table, not on a statement of the authors.
